PubChem BioAssay AID624099, ICCB-Longwood – 2012

Aim: 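Human genes that papillomavirus E2 requires to repress the HPV18 LCR promoter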 (primary screen)
System: human C33A cervical carcinoma cells (HPV-negative) stably expressing BPV1 E2 and an HPV18 LCR luciferase reporter
Reagent: siRNA pool against human genes, 40 nM
Duration: 72 h
Detection: 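HPV18 LCR reporter light per well, converted to plate-wise z-scores that exclude control wells, and averaged over triplicate plates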
Direction: mean z-score and z-score: higher = stronger reporter signal, weaker E2 silencing
Hit rule: 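Mean z ≥ 2 together with z ≥ 2 in two or more of the three replicates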
The whole screen tested about 21,000 reagents; shown is a random part of them. 497 of all reagents (2.4%) count as active. 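Higher z means weaker E2 silencing; only reporter increases were scored, and knock-downs that hurt cell survival may mask genuine repressor factors.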 Entries without a mark were called inactive. No sequences are given here.

| gene symbol | PubChem SID | mean z-score | z-score, replicate A | z-score, replicate B | z-score, replicate C |
| --- | --- | --- | --- | --- | --- |
| MRPL39 | SID134313409 | -0.43 | -0.2 | -0.34 | -0.76 |
| EPHA4 | SID56478498 | -0.71 | -0.09 | -1.08 | -0.96 |
| TOR1A | SID134315387 | -0.18 | 0.06 | -0.38 | -0.22 |
| HEATR1 | SID134319954 | -1.05 | -0.74 | -0.77 | -1.63 |
| STARD6 | SID134320859 | -0.16 | -0.45 | -0.27 | 0.23 |
| RRP8 | SID134318216 | -0.21 | -0.24 | -0.2 | -0.19 |
| ARHGDIB | SID134315280 | 1 | 0.86 | 0.87 | 1.27 |
| TMEM175 | SID134318943 | 1.11 | 1 | 1.3 | 1.05 |
| RAB1B | SID134313799 | 0.05 | -0.48 | 0.29 | 0.33 |
| BCAR3 | SID134315804 | -0.5 | -0.25 | -0.94 | -0.31 |
| SYCP2 | SID134324302 | -1.44 | -1.48 | -1.43 | -1.4 |
| DNAJC27 | SID134314546 | 1.57 | 1.64 | 1.77 | 1.31 |
| PRKAA2 | SID56479035 | -0.26 | -0.31 | 0 | -0.46 |
| ITPK1 | SID56479109 | -0.5 | -0.57 | -0.38 | -0.56 |
| PLPP1 | SID134322909 | 2.23 (active) | 2.53 | 2.29 | 1.85 |
| MON1B | SID134325044 | 0.46 | 0.18 | 0.64 | 0.57 |
| TRMT61B | SID134317209 | 0.3 | 0.25 | 0.58 | 0.08 |
| ZNF333 | SID134318979 | -0.53 | -0.39 | -0.39 | -0.82 |
| FAM153A | SID134321999 | -0.01 | 0.04 | -0.06 | 0 |
| TANC2 | SID134328801 | -0.88 | -0.66 | -0.74 | -1.23 |
| CD36 | SID134314813 | -0.13 | -0.01 | -0.21 | -0.17 |
| LOC401476 (retired record) | SID134327999 | -0.14 | -0.05 | 0 | -0.37 |
| PIK3R3 | SID56479284 | -1.54 | -1.78 | -1.38 | -1.46 |
| SPRY2 | SID134310804 | 0.03 | 0.05 | -0.1 | 0.13 |
| PKIG | SID134321168 | -0.04 | 0.04 | -0.14 | -0.01 |
| GPX1 | SID134313823 | -0.3 | -0.14 | -0.44 | -0.32 |
| TANK | SID134310833 | 0.34 | 0.23 | 0.4 | 0.41 |
| APOL6 | SID134317657 | 1.35 | 1.57 | 0.8 | 1.66 |
| TPH2 | SID134313185 | -1.03 | -0.84 | -1.24 | -1.02 |
| HSPE1 | SID134323425 | -1.07 | -1.26 | -0.97 | -0.98 |
| HTR6 | SID134311082 | 0.16 | 0.18 | 0.2 | 0.09 |
| CHRNA2 | SID134311555 | -0.6 | -0.66 | -0.65 | -0.49 |
| FLJ42393 | SID134329646 | 0.01 | -0.08 | 0.23 | -0.11 |
| DPYSL4 | SID134313373 | -0.43 | -0.45 | -0.53 | -0.3 |
| EHD1 | SID134322844 | 1.39 | 1.35 | 1.39 | 1.43 |
| NABP2 | SID134318454 | 0.34 | 0.31 | 0.22 | 0.49 |
| ANAPC2 | SID134309815 | -0.7 | -0.92 | -0.22 | -0.96 |
| PANX2 | SID134319188 | 0.23 | 0.03 | 0.13 | 0.54 |
| PPP2R2B | SID134309809 | 0.5 | 0.75 | 0.38 | 0.38 |
| LINC00474 | SID134317989 | 0.05 | 0.34 | 0.27 | -0.46 |
| RPL10L | SID134317495 | 0.9 | 0.63 | 0.46 | 1.6 |
| TMEM250 | SID134328030 | 0.06 | -0.02 | 0.18 | 0.03 |
| USP31 | SID134325411 | -0.82 | -0.68 | -0.87 | -0.9 |
| TLE2 | SID134319891 | 0.68 | 0.37 | 0.91 | 0.77 |
| SUMO1 | SID134320018 | -0.47 | -0.22 | -0.67 | -0.52 |
| CROT | SID134313997 | -0.01 | 0.21 | -0.03 | -0.21 |
| HNRNPA3P5 | SID134328451 | -1.12 | -0.97 | -0.78 | -1.6 |
| CDC73 | SID134319235 | 0.07 | 0 | 0 | 0.21 |
| DOK3 | SID134318640 | 0.44 | -0.35 | 1.56 | 0.13 |
| ANKRD34B | SID134326096 | -0.23 | -0.63 | -0.07 | 0 |
| CXCR4 | SID134310762 | -0.79 | -1.07 | -0.67 | -0.63 |
| CSK | SID56478490 | 1.72 | 1.49 | 1.75 | 1.9 |
| PBK | SID56479058 | 1.68 | 2.35 | 1.13 | 1.56 |
| HACD3 | SID134315157 | -0.6 | -0.25 | -0.98 | -0.56 |
| CCN2 | SID134316895 | 0.45 | 0.23 | 0.73 | 0.41 |
| CDK11B | SID56478854 | -0.62 | -0.78 | -0.82 | -0.25 |
| COPS2 | SID134316944 | -0.94 | -0.37 | -1.15 | -1.3 |
| NCKAP1 | SID134315135 | 1.63 | 1.94 | 1.48 | 1.47 |
| AKR7A2 | SID134313043 | -0.33 | -0.37 | -0.7 | 0.08 |
| LVRN | SID134311305 | 0.26 | 0.22 | 0.31 | 1.13 |
| DCTN5 | SID134318987 | -0.93 | 0.21 | -2.96 | -0.03 |
| LUZP4 | SID134324716 | 0.96 | 1.11 | 0.49 | 1.27 |
| ABCF3 | SID134313502 | 0.27 | 0.79 | -0.03 | 0.07 |
| TENT2 | SID134322357 | -0.47 | -0.81 | -0.45 | -0.15 |
| CELF2 | SID134316999 | 0.44 | -0.07 | 0.69 | 0.69 |
| OR2L3 | SID134326961 | -0.49 | -0.52 | -0.37 | -0.58 |
| TANGO2 | SID134320393 | -1.45 | -1.57 | -1 | -1.79 |
| ANXA2P3 | SID134315325 | 0.03 | -0.01 | 0.42 | -0.33 |
| RPS23P2 | SID134327424 | -0.08 | -0.59 | 0.09 | 0.28 |
| MC4R | SID134311099 | 0.04 | -0.22 | 0.37 | -0.04 |
| NKX2-6 | SID134326381 | -0.29 | -0.2 | -0.32 | -0.35 |
| TGDS | SID134314227 | -0.29 | -0.6 | -0.08 | -0.2 |
| STRBP | SID134319482 | -0.92 | -0.78 | -1.08 | -0.91 |

Part of the list above, set out differently.
{"gene symbol":"EPHA4","PubChem SID":"SID56478498","mean z-score":-0.71,"z-score, replicate A":-0.09,"z-score, replicate B":-1.08,"z-score, replicate C":-0.96}
{"gene symbol":"TOR1A","PubChem SID":"SID134315387","mean z-score":-0.18,"z-score, replicate A":0.06,"z-score, replicate B":-0.38,"z-score, replicate C":-0.22}
{"gene symbol":"HEATR1","PubChem SID":"SID134319954","mean z-score":-1.05,"z-score, replicate A":-0.74,"z-score, replicate B":-0.77,"z-score, replicate C":-1.63}
